Assay [1] addresses fluorescein labeled α-bungarotoxin (F-1176 Molecular Probes) (UniProt P60615 22-95). Description: fluorescent toxin binding to transfected SH-EP1 cells.
The target of assay [2] is unlabeled α-bungarotoxin (UniProt P60615 22-95). As to the kind of experiment: competition against Fl-btx, whole cell fluorescence on FLIPR (legend of FIG. 5).

B1: α7/5-HT3 Chimeric Ligand Gated Ion Channel (human α7 nAChR N-terminal 201 amino acids joined to the (receptor)
chain: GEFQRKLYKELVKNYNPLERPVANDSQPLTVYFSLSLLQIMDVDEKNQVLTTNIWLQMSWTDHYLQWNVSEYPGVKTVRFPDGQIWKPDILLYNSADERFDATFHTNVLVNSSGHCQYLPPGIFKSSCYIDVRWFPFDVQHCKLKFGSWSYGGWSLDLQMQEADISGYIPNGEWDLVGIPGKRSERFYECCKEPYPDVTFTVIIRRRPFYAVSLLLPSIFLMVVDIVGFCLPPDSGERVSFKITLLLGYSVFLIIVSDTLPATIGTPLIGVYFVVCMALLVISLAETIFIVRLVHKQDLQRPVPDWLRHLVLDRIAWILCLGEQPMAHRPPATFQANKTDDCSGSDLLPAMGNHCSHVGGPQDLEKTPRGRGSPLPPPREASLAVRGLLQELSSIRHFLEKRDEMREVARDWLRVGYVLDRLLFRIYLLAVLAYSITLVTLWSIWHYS
On to B1, for which the binding result in assay [1] and in assay [2] was “binds” throughout.

Source of the values: patent publication US20040132187A1 (PHARMACIA AND UPJOHN, published 2004).
